The subject of the test is HIV-1 (strain IIIB). Description: Antiviral Activity Assay in MT4 Cells (propidium iodide based procedure). Type of test: cell-based. The conditions noted are these: read-out: IC50 (MT-4 cells), MT4 cells infected with HIV-1 strain IIIB, 5 days, lower line of each compound's entry.
Setting [1] is: tested form: mixture of the two diastereomers (3R,3aS).

Like-named read-outs stand apart in the source and are kept apart here. The structures given here were assigned with low confidence; some may be wrong.

Usually IC50 stands for the concentration at which inhibition is half-maximal. Turning to `CS(=O)(=O)NCCNc1cccc(S(=O)(=O)N(C[C@@H](O)[C@H](Cc2ccccc2)NC(=O)OC2COC3OCCC23)OC2CCCC2)c1` (stereo partly drawn), under setting [1], the IC50 is less than 100 nM.
Same read-out and setting: then `CN1CCN(c2cccc(S(=O)(=O)N(C[C@@H](O)[C@H](Cc3ccccc3)NC(=O)OC3COC4OCCC34)OC3CCCC3)c2)C1` (stereo partly drawn), with 100 to 500 nM.
Turning to `CN(C)C(=O)CNc1cccc(S(=O)(=O)N(C[C@@H](O)[C@H](Cc2ccccc2)NC(=O)OC2COC3OCCC23)OC2CCCC2)c1` (stereo partly drawn), the IC50 (tested form: 1:1 mixture of the two diastereomers (3R)) was less than 100 nM.
